{"source": "paper PMC7913927", "about": "“Leishmanicidal Activity of Betulin Derivatives in Leishmania amazonensis; Effect on Plasma and Mitochondrial Membrane Potential, and Macrophage Nitric Oxide and Superoxide Production” (Microorganisms, 2021)", "tested_on": "LTB0016 intracellular amastigotes in J774.1 macrophages", "test": "Macrophage-amastigote model, reference strain", "type": "cell-based, Leishmania amazonensis", "experimental": "We used a previously described methodology, with some modifications. Macrophage monolayers, grown in RMPIc medium, for 3 days, were detached from the bottom of the culture chamber, by physical treatment (low temperature and light strokes). Obtained macrophages were seeded in flat-bottom 96-well culture plates, at a density of 2 × 10^5 cells mL^−1 (40,000 macrophages/well), in a final volume of 200 µL. Plates were incubated for 2 h, and the supernatant was discarded to remove non-adhered macrophages. Medium was replaced with stationary-phase promastigotes suspended in 200 µL of RPMIc (2 × 10^6 parasites mL^−1, 400,000 parasites/well), at a macrophage: parasite ratio 1:10 [40]. The plates were incubated for 4 h. Afterwards the medium was replaced with fresh RPMIc and increasing concentrations of compounds or drugs tested were applied, in volumes of 2 µL, according to the different treatment groups. Plates were kept for 72 h, at 37 °C and 5% CO2. The medium was discarded and the wells were washed twice with PBS. Next, a Giemsa staining was performed in situ. […] The percentage of infected macrophages (% infection) and the average number of amastigotes present in infected macrophages (amastigotes) were determined. […] The infection rate represents the number of intracellular amastigotes per 100 macrophages evaluated. Additionally, the GI50 for the decrease in the infection rate was calculated. […]", "data": [{"smiles": "C=C(C)C1CCC2(C=NO)CCC3(C)C(CCC4C5(C)CCC(=NO)C(C)(C)C5CCC43C)C12", "note": "(centres unmarked) [Compound 18]", "values": [{"measurement": "Selectivity index amastigote (ISa) LTB0016", "setting": "CC50 MØJ774 / supplement mean GI50", "result": 172.99}, {"measurement": "SI", "setting": "summary bound for reference strain LTB0016 and patient isolates, vs J774.1 macrophages", "result": "> 20"}]}]}
